Reference: PMC3233575

By UniProt entry, the sequences of proteins in these tests, tags left out. Where a name states a change or a piece, a line headed by the entry shows the natural chain unless it says otherwise.
UniProt Q9NNX6: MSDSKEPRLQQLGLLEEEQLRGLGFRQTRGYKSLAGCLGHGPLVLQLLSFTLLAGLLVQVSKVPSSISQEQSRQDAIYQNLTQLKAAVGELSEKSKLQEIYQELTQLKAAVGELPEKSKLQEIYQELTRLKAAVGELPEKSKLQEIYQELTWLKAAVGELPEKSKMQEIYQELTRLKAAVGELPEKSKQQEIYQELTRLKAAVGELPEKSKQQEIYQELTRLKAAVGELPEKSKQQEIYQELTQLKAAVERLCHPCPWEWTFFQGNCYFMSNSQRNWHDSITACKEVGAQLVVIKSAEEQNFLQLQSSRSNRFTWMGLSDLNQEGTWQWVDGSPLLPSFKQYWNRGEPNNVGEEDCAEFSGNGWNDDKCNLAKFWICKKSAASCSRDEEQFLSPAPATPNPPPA

What was measured:
Assay in all cases: SPR; gp140 (100 nM) captured on amine-coupled Mab 5F3; with or without DC-SIGN or Langerin (50 nM) injected first; then fluid phase CD4 (50-500 nM); HBS-P pH 7.4 with 10 mM CaCl2; two-step linked reaction model, apparent KD; t1/2 = ln 2/kd
[1] = target: HIV-1 BX08 gp140 (soluble, trimeric ectodomain of the envelope glycoprotein, residues 31-663) (HIV-1 strain 92FR_BX08 (clade B, R5))
[2] = target: Langerin:gp140 (BX08) complex, formed on the chip before CD4 was injected (HIV-1 strain 92FR_BX08 (clade B, R5) | not stated) (UniProt Q9UJ71)
[3] = target: DC-SIGN:gp140 (BX08) complex, formed on the chip before the ligand was injected (HIV-1 strain 92FR_BX08 (clade B, R5) | not stated) (UniProt Q9NNX6)

CHO-expressed soluble CD4 (from UniProt P01730 26-396) (receptor)
Kd [1]: 2.4 nM
t1/2 of the complex [2]: 16 min
t1/2 of the complex [3]: > 190 h
